Results of unrelated studies side by side (data: NIAID ChemDB).

Common to all: tests in culture

Rows are shuffled and stem from different studies.

| smiles | measure | cells | changes | dose | agent | strain | method | value |
|---|---|---|---|---|---|---|---|---|
| Nc1ccnc2c1ncn2[C@H]1C=C[C@@H](OCP(=O)(O)O)O1 | EC90 |  |  |  | Adenovirus | adenoid 75 (TYPE 5) | virus yield | 15 µg/mL |
| Nc1nc(N)c2ncn(CCOCP(=O)(O)O)c2n1 | EC50 | HEL |  |  | Herpes simplex virus 1 | KOS PMEDAP-resistant | cytopathic effect | 60 µg/mL |
| C=C(C)CN(CC)c1c([N+](=O)[O-])cc(C(F)(F)F)cc1[N+](=O)[O-] | EC50 |  |  |  | Toxoplasma gondii | RH |  | 0.1 µM |
| Cc1ncc([N+](=O)[O-])n1CCO | inhibition | MRC-5 fibroblasts |  | 2 µg/mL | Encephalitozoon cuniculi |  | cytopathic effect | 0% |
| Nc1ccc(S(=O)(=O)Nc2ncccn2)cc1 | inhibition |  |  | 3 µg/mL | Toxoplasma gondii |  |  | 69% |
| CO[C@H]1C[C@H](O[C@H]2[C@@H](C)[C@@H](O[C@@H]3O[C@@H](C)C[C@H](N(C)C)[C@H]3O)[C@H](C)C[C@@]3(CO3)C(=O)[C@H](C)[C@H](O)[C@@H](C)[C@H](C)OC(=O)[C@H]2C)O[C@@H](C)[C@@H]1O | EC50 | HeLa |  |  | Herpes simplex virus 1 | KOS | cytopathic effect | >200 µg/mL |
| CC[C@H]1C[C@]1(NC(=O)[C@@H]1C[C@@H]2CN1C(=O)[C@H](C(C)(C)C)NC(=O)OCC(C)(C)CCCCc1cccc3c1CN(C3)C(=O)O2)C(=O)NS(=O)(=O)C1CC1 | EC50 | Huh7.5 |  |  | Hepatitis C virus | JCH4 | antigen | 0.065 µM |
| CC[C@@]1(O)C(=O)OCc2c1cc1n(c2=O)Cc2cc3ccccc3nc2-1 | MIC |  |  |  | Saccharomyces cerevisiae | Mutant ΔERG6 ΔTOP1 |  | >100 µg/mL |
| CO[C@H]1/C=C/O[C@@]2(C)Oc3c(C)c(O)c4c(O)c(c5c(c4c3C2=O)NC2(CCN(CC(C)C)CC2)N=5)=NC(=O)/C(C)=C\C=C\[C@H](C)[C@H](O)[C@@H](C)[C@@H](O)[C@@H](C)[C@H](OC(C)=O)[C@@H]1C | MIC |  |  |  | Staphylococcus aureus | SMITH |  | 0.0313 µg/mL |
| c1cc(CN2CCCNCCNCCCNCC2)ccc1CN1CCCNCCNCCCNCC1 | inhibition | PBMC |  | 0.5 µM | HIV-1 | DJ258 CLADE A R5 | p24 | 46% |
| NC(=O)c1ncn([C@@H]2O[C@H](CO)[C@@H](O)[C@H]2O)c1O | EC50 | HeLa |  |  | Respiratory syncytial virus |  | plaque count | 1.7 µg/mL |
| Nc1ncnc2c1ncn2Cc1c(F)cccc1Cl | inhibition | MRC-5 fibroblasts |  | 1 µg/mL | Encephalitozoon cuniculi |  | cytopathic effect | 0% |
| COc1cc2oc(=O)ccc2cc1CC(O)C(C)(C)O | MIC |  |  |  | Klebsiella pneumoniae | ESBL-3894 |  | >250 µg/mL |
| Cc1c(CNc2cccc3c2CCCC3)cnc2nc(N)nc(N)c12 | inhibition | RK-13 |  | 0.01 µg/mL | Encephalitozoon intestinalis |  |  | 0% |
| C#C[C@]1(CO)O[C@@H](n2cnc3c(N)nc(F)nc32)CC1O | fold resistance | MAGIC-5A | M184V |  | HIV-2 | ROD9 | β-galactosidase / absorbance | 26 |
| c1ccc2[nH]cnc2c1 | EC50 |  |  |  | Cryptococcus neoformans | IU4 |  | <4 µg/mL |
| CC(C)(C)OC(=O)N[C@@H]1CCCCC/C=C\[C@@H]2C[C@@]2(C(=O)NS(=O)(=O)C2CC2)NC(=O)[C@@H]2C[C@@H](OC(=O)N3Cc4cccc(F)c4C3)CN2C1=O | EC50 | Huh7.5 |  |  | Hepatitis C virus | K3a/650 | antigen | 2.29 µM |
| CC[C@@]1(O)C(=O)OCc2c1cc1n(c2=O)Cc2cc3c(CN(C)C)c(O)ccc3nc2-1 | MIC |  |  |  | Saccharomyces cerevisiae | Mutant ΔERG6 ΔTOP1 |  | >1000 µg/mL |
| O=c1cnn([C@@H]2O[C@H](CO)[C@@H](O)[C@H]2O)c(=O)[nH]1 | EC50 | VERO |  |  | Dengue virus | TYPE 4 (YUNH) | virus yield | <0.3 µg/mL |
| COc1ccc2c(c1OC)C(=O)O[C@@H]2[C@H]1c2cc3c(cc2CCN1C)OCO3 | EC50 | HeLa |  |  | Herpes simplex virus 1 | KOS | cytopathic effect | >400 µg/mL |
| COC(=O)[C@H]1[C@@H]2C[C@@H](O[C@@H]3O[C@H](C)[C@@H](O)[C@H](N)[C@@H]3O)/C=C/C=C/C=C/C=C/C=C/C=C/C=C/[C@H](C)[C@@H](O)[C@H](C)[C@H](C)OC(=O)C[C@H](O)C[C@H](O)[C@@H](O)CC[C@H](O)C[C@H](O)C[C@](O)(C[C@@H]1O)O2 | inhibition | F6000 |  | 50 µg/mL | Vesicular stomatitis virus |  | plaque count | 0% |
| CC(C)=CCN1Cc2cc(Cl)cc3[nH]c(=S)n(c23)C[C@@H]1C | EC95 | MT-4 | RT-K70R L100I |  | HIV-1 |  |  | >3 µM |
| CCOC(=O)Nc1cc2c(c(N)n1)N=C1c3ccccc3CCC1O2.Cl.Cl | inhibition | RK-13 |  | 1 µg/mL | Encephalitozoon intestinalis |  |  | 58.3% |
| CC[C@@]1(OC(=O)CN)C(=O)OCc2c1cc1n(c2=O)Cc2cc3c(N)c4c(cc3nc2-1)OCO4 | MIC |  |  |  | Saccharomyces cerevisiae | Mutant ΔERG6 |  | 3.12 µg/mL |
| C[C@H](CCC(=O)NCCS(=O)(=O)O)[C@H]1CC[C@H]2[C@@H]3[C@H](O)C[C@@H]4C[C@H](O)CC[C@]4(C)[C@H]3C[C@H](O)[C@]12C | EC50 | HeLa |  |  | Herpes simplex virus 1 | KOS | cytopathic effect | >200 µg/mL |
| COc1ccc2cc3[n+](cc2c1OC)CCc1cc2c(cc1-3)OCO2 | inhibition | RK-13 |  | 0.001 µg/mL | Vittaforma corneae |  |  | 100% |
| Nc1nc2c(ncn2CCOCP(=O)(O)O)c(=O)[nH]1 | EC50 |  |  |  | Measles virus | Edmonston | cytopathic effect | >32 µg/mL |
| COc1cc2c(cc1OC)C1OCCCN1c1c-2ccc2cc3c(cc12)OCO3 | MIC |  |  |  | Saccharomyces cerevisiae | Mutant ΔERG6 ΔTOP1 |  | 50 µg/mL |
| CO[C@H]1/C=C/O[C@@]2(C)Oc3c(C)c(O)c4c(=O)c(c5oc6cc(N7CCN(CC(C)C)CC7)cc(=O)c6nc5c4c3=C2O)NC(=O)/C(C)=C\C=C\[C@H](C)[C@H](O)[C@@H](C)[C@@H](O)[C@@H](C)[C@H](OC(C)=O)[C@@H]1C | MIC90 |  |  |  | Staphylococcus aureus | 20 strains (methicillin-susceptible) |  | 0.016 µg/mL |
| CC[C@]1(O)C(=O)OCc2c1cc1n(c2=O)Cc2cc3cc4c(cc3nc2-1)OCO4 | MIC |  |  |  | Saccharomyces cerevisiae | Mutant ΔERG6 ΔTOP1 |  | >100 µg/mL |
| Nc1ncnc2c1ncn2[C@H]1C[C@H](F)[C@@H](CO)O1 | EC50 | VERO |  |  | Semliki Forest virus |  | plaque count | 10.3 µM |
| CC(C)(CO)C(=O)SCCOP(=O)(NCc1ccccc1)OC[C@H]1O[C@@H](n2cnc3c(=O)[nH]c(N)nc32)[C@](C)(O)[C@@H]1O | fold resistance | Replicon cells | Y93N |  | Hepatitis C virus | GT1b | replicon | 0.69 |
| O=C(O)P(=O)(O)O | EC50 | HEL |  |  | Herpes simplex virus 1 | KOS GCV-resistant | cytopathic effect | 51.3 µg/mL |
| Nc1nc(=O)n2ccn([C@@H]3O[C@H](CO)[C@@H](O)[C@H]3O)c2n1 | EC50 | VERO |  |  | West Nile virus | ATCC VR-82 | cytopathic effect | 3 µg/mL |
| CN1CCC2(C1)C1CC3CC(C1)CC2C3 | MIC |  |  |  | Influenza B virus | B/University of Maryland/1/71 |  | >25 µg/mL |
| c1ccc2[nH]c(-c3cscn3)nc2c1 | EC50 |  |  |  | Cryptococcus neoformans | ATCC 14116 |  | <4 µg/mL |
| Nc1nc(=O)n([C@@H]2O[C@H](CO)[C@@H](O)[C@@H]2F)cc1I | EC50 | HEL |  |  | Herpes simplex virus 1 | KOS HPMPC-resistant | cytopathic effect | 0.023 µg/mL |
| CCN(CC)CCCC(C)Nc1ccnc2cc(Cl)ccc12 | EC50 | MRC-5 fibroblasts |  |  | Encephalitozoon cuniculi |  | cytopathic effect | >25 µg/mL |
| C[C@@]1(O)[C@H](O)[C@@H](CO)O[C@H]1n1ccc2c(N)ncnc21 | inhibition | Hep3B-T5B |  | 50 µg/mL | Hepatitis C virus |  | MTT | 7.84% |
| O=c1[nH]c(=O)n([C@H]2C[C@H](O)[C@@H](CO)O2)cc1/C=C/Br | EC50 | HEL |  |  | Herpes simplex virus 1 | KOS HPMPC-resistant | cytopathic effect | 0.007 µg/mL |
| Nc1ncnc2c1ncn2C[C@@H](CO)OCP(=O)(O)O | EC90 |  |  |  | Adenovirus | adenoid 75 (TYPE 5) | virus yield | 1 µg/mL |
| CC[C@H](C)[C@H]1NC(=O)[C@@H](NC(=O)[C@@H](CC(C)C)NC)[C@@H](C)OC(=O)[C@H](Cc2ccc(OC)cc2)N(C)C(=O)[C@@H]2CCCN2C(=O)[C@H](CC(C)C)NC(=O)[C@@H](C)C(=O)[C@H](C(C)C)OC(=O)C[C@@H]1O | inhibition | LLC-MK2 |  | 1.25 µg/mL | Dengue virus | TYPE 3 | plaque count | 21.4% |
| Nc1nc2c(ncn2COC(CO)CO)c(=O)[nH]1 | EC50 | HEL |  |  | Herpes simplex virus 1 | KOS | cytopathic effect | 0.001 µg/mL |
| NC(=O)/C=C/C1=NCCC1 | EC50 | HeLa |  |  | Herpes simplex virus 1 | KOS | cytopathic effect | >200 µg/mL |
| CCC(C)n1ncn(-c2ccc(N3CCN(c4ccc(OC[C@H]5CO[C@](Cn6cncn6)(c6ccc(Cl)cc6Cl)O5)cc4)CC3)cc2)c1=O | EC50 | MRC-5 fibroblasts |  |  | Encephalitozoon cuniculi |  | cytopathic effect | >1 µg/mL |
| CCOC(=O)Nc1cc2c(c(N)n1)N=C(c1cccc(OC)c1)CS2 | inhibition | RK-13 |  | 0.001 µg/mL | Encephalitozoon intestinalis |  |  | 31.9% |
| C[C@H]1CCC/C=C/[C@@H]2C[C@H](O)C[C@H]2[C@@H](O)/C=C/C(=O)O1 | EC50 | HeLa |  |  | Herpes simplex virus 1 | KOS | cytopathic effect | >200 µg/mL |
| CCOC(=O)Nc1cc2[nH]c(-c3ccccc3)nc2c(N)n1 | inhibition | RK-13 |  | 1 µg/mL | Encephalitozoon intestinalis |  |  | 79.4% |
| CN(C)[C@@H]1C(=O)C(C(N)=O)=C(O)[C@@]2(O)C(=O)C3=C(O)c4c(O)c(NC(=O)CNc5ccccc5)cc(F)c4C[C@H]3C[C@@H]12 | EC50 |  |  |  | Streptococcus pneumoniae | 160-tet | agar diffusion | 4 µg/mL |
| COc1cc(Cc2cnc(N)nc2N)cc(OC)c1OC | EC50 | HeLa |  |  | Herpes simplex virus 1 | KOS | cytopathic effect | >300 µg/mL |
| CO[C@H]1[C@@H](OC(=O)/C=C/C=C/C=C/C=C/C(=O)O)CC[C@@]2(CO2)[C@@H]1[C@@]1(C)O[C@@H]1CC=C(C)C | EC50 | MRC-5 fibroblasts |  |  | Encephalitozoon cuniculi |  | cytopathic effect | <0.1 µg/mL |
| COC(=O)Nc1nc2ccc(C(=O)c3cccs3)cc2[nH]1 | EC90 |  |  |  | Cryptococcus neoformans | IU4 |  | 0.22 µg/mL |
| CC[C@H]1OC(=O)[C@H](C)[C@@H](O[C@H]2C[C@@](C)(OC)[C@@H](O)[C@H](C)O2)[C@H](C)[C@@H](O[C@@H]2O[C@H](C)C[C@H](N(C)C)[C@H]2O)[C@](C)(OC)C[C@@H](C)C(=O)[C@H](C)[C@@H](O)[C@]1(C)O | MIC |  |  |  | Mycobacterium abscessus | X73 | broth dilution | 0.25 µg/mL |
| CC[C@@]1(O)C(=O)OCc2c1cc1n(c2=O)Cc2c-1nc1cc3c(cc1c2C)OCO3 | MIC |  |  |  | Saccharomyces cerevisiae | Mutant ΔERG6 |  | >100 µg/mL |
| C[C@@]1(O)[C@H](O)[C@@H](CO)O[C@H]1c1coc2c(N)ncnc12 | inhibition | Hep3B-T5B |  | 50 µg/mL | Hepatitis C virus |  | MTT | 7.84% |
| C[C@@H]1[C@H](O)[C@@H](C)/C=C/C=C/CC/C=C/C=C/C=C/C=C/C(O[C@H]2O[C@H](C)[C@@H](O)[C@H](N)[C@@H]2O)CC2O[C@](O)(CC(O)C(O)CCC(O)CC(O)CC(O)CC(=O)O[C@H]1C)CC(O)C2C(=O)O | MFC100 |  |  |  | Candida albicans | ICM 12 | broth dilution | 64 µg/mL |

ECn is the concentration giving n% inhibition of infection, replication or growth. Blank or dashed fields: not listed here. Percent inhibition refers to the dose given; in toxicity tests it is the harm to the cells. Fold resistance has wild type as its base. A number after MIC or MFC names an inhibition level or a share of isolates.